Measurements reported in article PMC8664216 (PLoS Neglected Tropical Diseases, 2021).

Columns and labels:
[1] = tested on: thioredoxin-related transmembrane protein 2 (TMX2); conditions: Huh7 cells, 10 μM tomatidine, mass spectrometry; for Fold change in TMX-2 protein expression, 16 h Toma vs EtOH: FDR <0.1
[2] = tested on: CD98; conditions: Huh7 cells, 10 μM tomatidine, mass spectrometry; for Fold change in CD98 protein expression, 16 h Toma vs EtOH: FDR <0.1
[3] = tested on: metallothionein (MT); conditions: Huh7 cells, 10 μM tomatidine, mass spectrometry; for Fold change in MT protein expression, 16 h Toma vs EtOH: FDR <0.1
[4] = tested on: CHIKV-LR; assay: In-gel hybridization of CHIKV gRNA and sgRNA; assay type: cell-based, Chikungunya virus; conditions: Huh7 cells, MOI 10, 10 μM tomatidine, 6 hpi
[5] = tested on: p62; conditions: Huh7 cells, 10 μM tomatidine, mass spectrometry; for Fold change in p62 protein expression, 16 h Toma vs EtOH: FDR <0.1

**Q.** Which results are given for `C[C@H]1CC[C@]2(NC1)O[C@H]1C[C@H]3[C@@H]4CC[C@H]5C[C@@H](O)CC[C@]5(C)[C@H]4CC[C@]3(C)[C@H]1[C@@H]2C` [tomatidine, Tomatidine]?
**A.** Fold change in TMX-2 protein expression, 6 h Toma vs EtOH ([1]; 6 h): 1.04 fold; Fold change in TMX-2 protein expression, 16 h Toma vs EtOH [1]: 0.68 fold; Fold change in TMX-2 protein expression, 16 h Toma vs EtOH ([1]; listed as Toma): 0.68 ^* fold; Fold change in CD98 protein expression, 6 h Toma vs EtOH ([2]; 6 h): 0.95 fold; Fold change in CD98 protein expression, 16 h Toma vs EtOH [2]: 1.72 fold; Fold change in CD98 protein expression, 16 h Toma vs EtOH ([2]; listed as Toma): 1.72 ^* fold; Fold change in MT protein expression, 6 h Toma vs EtOH ([3]; 6 h): 0.93 fold; Fold change in MT protein expression, 16 h Toma vs EtOH [3]: 3.68 fold; Fold change in MT protein expression, 16 h Toma vs EtOH ([3]; listed as Toma): 3.68 ^* fold; sgRNA to gRNA ratio, presence vs absence of tomatidine [4]: No statistical differences; Fold change in p62 protein expression, 6 h Toma vs EtOH ([5]; 6 h): 1.02 fold; Fold change in p62 protein expression, 16 h Toma vs EtOH [5]: 2.07 fold; Fold change in p62 protein expression, 16 h Toma vs EtOH ([5]; listed as Toma): 2.07 ^* fold

Like-named read-outs stand apart in the source and are kept apart here. Marks after values point to notes of the source that are not given here.
